# Measured values from US20240041851A1 (priority 2020, published 2024).
# No dose or concentration is given here for some results.
# System: Vero E6 cells
# Type: cell-based, African Green Monkey
row,Structure (SMILES),log2Foldcha[nge]
1,NC1(C(=O)O)CC1,−0.583
2,CC(=O)O[C@H](CC(=O)[O-])C[N+](C)(C)C [Acetyl-L-carnitine],−0.6736
3,C[N+](C)(C)CC(=O)O [Betaine],0.1735
4,NCCOP(=O)(O)OP(=O)(O)OC[C@H]1O[C@@H](n2ccc(N)nc2=O)[C@H](O)[C@@H]1O [CDP-ethanolamine],−0.1028
5,"Cn1cnc(C[C@H](N)C(=O)O)c1 [Compound 1-Methyl-L-Histidine, 1-Methyl-L-Histidine]",−0.5011
6,"N=CN1c2c(nc(N)[nH]c2=O)NCC1CNc1ccc(C(=O)N[C@@H](CCC(=O)O)C(=O)O)cc1 (stereo partly drawn) [Compound 5-Formimino-tetrahydrofolate, 5-Formimino-tetrahydrofolate]",−1.582
7,O=C(O)[C@H](O)[C@@H](O)[C@H](O)[C@H](O)CO [D-Gluconate],0.1346
8,CC(=O)C(O)O.O=P(O)(O)O [Dihydroxyacetone Phosphate],0.3987
9,O=CC(O)COP(=O)(O)O (stereo not drawn) [Glyceraldehyde 3-phosphate],−0.1798
10,O=C(O)CNC(=O)c1ccccc1 [Hippurate],−1.068
11,NCCS(=O)O [Hypotaurine],0.1961
12,O=C(O)C[C@H](C(=O)O)[C@@H](O)C(=O)O [Isociitrate],−0.4479
13,N[C@@H](CS(=O)O)C(=O)O [L-Cysteinesulfinic acid],2.299
14,CC(=O)N[C@@H](CS)C(=O)O [N-Acetylcysteine],−0.1883
15,C=C(OP(=O)(O)O)C(=O)O [Phosphoenol-pyruvate],0.4137
16,NCCCCNCCCN [Spermidine],−0.5127
17,NC(=O)NC(CC(=O)O)C(=O)O (stereo not drawn) [Ureidosuccinic acid],0.6248
18,O=C(O)/C=C/c1c[nH]cn1 [Urocanic acid],−0.7621
